From patent US20230257726A1

Molecular target: SARS-CoV-2 spike protein on spike pseudotyped lentivirus particles or authentic SARS-CoV-2 (SARS-CoV-2) (UniProt P0DTC2)
Assay: cell-based or functional assay

Wild-type ACE2(740)-Fc (Fc fusion)
IC50 (µg/ml), pseudovirus: 0.71 µg/mL
